As usually defined, the Km is the concentration of substrate that gives half-maximal velocity.

One data set deals with O=C(O)CC(=O)C(=O)O. Nature of the data set: purified protein. Conditions: pH 7.2.
The test system of another data set is C=C(OP(=O)(O)O)C(=O)O. Nature of the data set: purified protein. To be noted: pH 7.2.

As to (Mycobacterium tuberculosis H37Rv), the Km with O=C(O)CC(=O)C(=O)O came out at 13.8 ± 4.6 µM; in the data set on C=C(OP(=O)(O)O)C(=O)O, 414.1 ± 77.29 µM.

The record behind these values is publication PMC5279734.
